Results on 77 compounds are retold here after US20170100396A1 (priority 2015, published 2017).

In the experiment the target is PB2 cap binding domain (PB2-CBD) (residues 318-483) (Influenza A virus (A/duck/Shantou/4610/2003(H5N1)), UniProt Q2LG68). Description: Cap Fluorescence-Polarization Ligand Displacement (CapFP-LD) assay (Fp). Also noted: species or system avian influenza strain A/duck/Shantou/4610/2003(H5N1). Conditions: read-out: Fp Ki; m7GTP-5FAM tracer displacement from PB2-CBD.
One may read the Ki as a measure of affinity in units of concentration, obtained from inhibition or displacement. Turning to `COc1ccc(CCNC(=O)[C@H](NC(=O)c2c[nH]c3ncc(C4CC4)nc23)C2CC2)cc1`, the inhibition constant Ki worked out at 98.4 µM.
To `O=C(N[C@@H](C(=O)NCc1ccc(F)c(F)c1)C1CC1)c1c[nH]c2ncc(C3CC3)nc12` belongs more than 31.2 µM; to `CC(C)NC(=O)c1c[nH]c2ncc(-c3ccccc3C(F)(F)F)nc12`, not below 62.5 µM; to `CC(C)C[C@@H](NC(=O)c1c[nH]c2ncc(C3CC3)nc12)C(=O)N1CC2(CNC2)C1`, 5.13 µM.
Regarding `N#CC(Cc1ccccc1)NC(=O)c1c[nH]c2ncc(C3CC3)nc12` (centres unmarked), the Ki was determined as 9.25 µM.
In the case of `O=C(N[C@@H](C(=O)N1CC2(CCC2)C1)C1CC1)c1c[nH]c2ncc(C3CC3)nc12` it was 15.4 µM; in that of `COc1ccc(CNC(=O)[C@H](NC(=O)c2c[nH]c3ncc(C4CC4)nc23)C2CC2)cc1`, 40.6 µM; in that of `Cc1ccc(CNC(=O)c2c[nH]c3ncc(C(C)C)nc23)nn1`, 14.1 µM.
On to `COCCN(CCOC)C(=O)c1c[nH]c2ncc(C(C)C)nc12`, for which the Ki was more than 1000 µM.
As to `CC(C)c1cnc2[nH]cc(C(=O)NCCCN3CCOCC3)c2n1`, the Ki is 37.4 µM.
`O=C(N[C@@H](C(=O)NCCc1ccccc1)C1CC1)c1c[nH]c2ncc(C3CC3)nc12`: the Ki is 16.2 µM.
In the case of `CC(C)C[C@@H](NC(=O)c1c[nH]c2ncc(C3CC3)nc12)C(=O)NCC(=O)NCc1ccccn1` it was 5.53 µM; in that of `CC(C)C[C@@H](NC(=O)c1c[nH]c2ncc(C3CC3)nc12)C(=O)NCC(=O)Nc1ccccc1`, 4.87 µM.
`CN1CCN(C(=O)CCNC(=O)[C@H](NC(=O)c2c[nH]c3ncc(C4CC4)nc23)C2CC2)CC1`: the Ki came to 60.1 µM.
In the case of `O=C(N[C@@H](C(=O)NCc1ccc(OC(F)(F)F)cc1)C1CC1)c1c[nH]c2ncc(C3CC3)nc12` it was more than 125 µM; in that of `CC(C)C[C@@H](NC(=O)c1c[nH]c2ncc(C3CC3)nc12)C(=O)NC1CCCc2ccccc21` (some centres unmarked), not below 125 µM.
As to `CC(C)C[C@@H](NC(=O)c1c[nH]c2ncc(C3CC3)nc12)C(=O)NCCC(=O)NCc1ccccc1`, the Ki was 8.32 µM.
Take `O=C(N[C@@H](C(=O)NCc1ccccc1F)C1CC1)c1c[nH]c2ncc(C3CC3)nc12`: the inhibition constant Ki came out at 68.9 µM.
For the compound `O=C(N[C@@H](C(=O)N1CCC[C@H](C(=O)N2CCCC2)C1)C1CC1)c1c[nH]c2ncc(C3CC3)nc12`, the Ki is 6.9 µM.
To `O=C(N[C@@H](C(=O)NCc1ccc(F)cc1)C1CC1)c1c[nH]c2ncc(C3CC3)nc12` belongs more than 31.2 µM.
Take `CS(=O)(=O)CCNC(=O)c1c[nH]c2ncc(-c3ccccc3Cl)nc12`: the inhibition constant Ki was more than 655 µM.
For `O=C(N[C@@H](C(=O)Nc1ccccc1)C1CC1)c1c[nH]c2ncc(C3CC3)nc12`, the Ki worked out at 27 µM.
For `O=C(N[C@@H](C(=O)N1CCCC1)C1CC1)c1c[nH]c2ncc(C3CC3)nc12`, the inhibition constant (Ki) is 26.9 µM.
As for `O=C(N[C@@H](C(=O)N1CCc2ccccc2C1)C1CC1)c1c[nH]c2ncc(C3CC3)nc12`, the Ki came out at 20 µM.
Consider `CC(C)c1cnc2[nH]cc(C(=O)NC3(C#N)CC3)c2n1`, for which the Ki came to 38.1 µM.
On to `CCCNC(=O)c1c[nH]c2ncc(C(C)C)nc12`, for which the Ki was 65.7 µM.
As for `N#CC(NC(=O)[C@H](NC(=O)c1c[nH]c2ncc(C3CC3)nc12)C1CC1)c1ccc(C(F)(F)F)cc1` (some centres unmarked), the inhibition constant (Ki) is 74.4 µM.
`O=C(N[C@@H](C(=O)N1CCN(Cc2ccccc2)CC1)C1CC1)c1c[nH]c2ncc(C3CC3)nc12`: the Ki was found to be 165 µM.
In the case of `O=C(N[C@@H](C(=O)N1CCC[C@@H](C(=O)N2CCCCC2)C1)C1CC1)c1c[nH]c2ncc(C3CC3)nc12`, the Ki is 4.8 µM.
With `O=C(N[C@@H](C(=O)N1CC2(COC2)C1)C1CC1)c1c[nH]c2ncc(C3CC3)nc12`, the inhibition constant Ki was found to be 1.9 µM.
For `O=C(N[C@@H](C(=O)N1CCC[C@H](C(=O)N2CCCCC2)C1)C1CC1)c1c[nH]c2ncc(C3CC3)nc12`, the Ki was determined as 8.5 µM.
To `COc1ccc(NC(=O)[C@H](NC(=O)c2c[nH]c3ncc(C4CC4)nc23)C2CC2)cc1` belongs 35.9 µM; to `O=C(N[C@@H](C(=O)NCc1ccncc1)C1CC1)c1c[nH]c2ncc(C3CC3)nc12`, 51.5 µM.
Regarding `O=C(N[C@@H](C(=O)NCC(=O)N1CCOCC1)C1CC1)c1c[nH]c2ncc(C3CC3)nc12`, the Ki was found to be 24.5 µM.
Consider `CCN(C)C(=O)c1c[nH]c2ncc(C(C)C)nc12`, for which the Ki is more than 1000 µM.
With `O=C(N[C@@H](C(=O)NCCC(=O)N1CCCC1)C1CC1)c1c[nH]c2ncc(C3CC3)nc12`, the Ki was 17.6 µM.
To `CC(C)C[C@@H](NC(=O)c1c[nH]c2ncc(C3CC3)nc12)C(=O)NCCC(=O)NCc1ccccn1` belongs 7.85 µM; to `O=C(N[C@@H](C(=O)NCCC(=O)N1CCOCC1)C1CC1)c1c[nH]c2ncc(C3CC3)nc12`, 45.6 µM.
`O=C(NCC(=O)N1CCCC1)c1c[nH]c2ncc(Br)nc12`: the Ki was found to be 9.2 µM.
`O=C(N[C@@H](C(=O)NCc1cccc(F)c1)C1CC1)c1c[nH]c2ncc(C3CC3)nc12`: the Ki was found to be 57 µM.
In the case of `CC(C)C[C@@H](NC(=O)c1c[nH]c2ncc(C3CC3)nc12)C(=O)N1CC2(CN(C(=O)OC(C)(C)C)C2)C1`, the Ki was 1.06 µM.
Turning to `O=C(N[C@@H](C(=O)NCCc1ccc(Cl)cc1)C1CC1)c1c[nH]c2ncc(C3CC3)nc12`, the inhibition constant (Ki) amounted to 68.2 µM.
For `O=C(N[C@@H](C(=O)NCCC(=O)N1CCS(=O)(=O)CC1)C1CC1)c1c[nH]c2ncc(C3CC3)nc12`, the Ki is 75.1 µM.
On to `CC(C)c1cnc2[nH]cc(C(=O)NC3CCCCC3O)c2n1` (centres unmarked), for which the Ki stood at 195 µM.
As for `O=C(NCC(=O)N1CCCC1)c1c[nH]c2ncc(C3CC3)nc12`, the Ki amounted to 2.7 µM.
To `O=C(N[C@@H](C(=O)NCc1cc(Cl)cc(Cl)c1)C1CC1)c1c[nH]c2ncc(C3CC3)nc12` belongs more than 7.8 µM; to `CC(C)C[C@@H](NC(=O)c1c[nH]c2ncc(C3CC3)nc12)C(=O)N1CCCC1`, 0.7 µM.
As to `O=C(N[C@@H](C(=O)N1CCC2(CCN(Cc3ccccc3)C2=O)C1)C1CC1)c1c[nH]c2ncc(C3CC3)nc12` (some centres unmarked), the Ki was determined as 11.3 µM.
For `O=C(N[C@@H](C(=O)NCc1ccccc1Cl)C1CC1)c1c[nH]c2ncc(C3CC3)nc12`, the Ki is more than 125 µM.
For the compound `O=C(N[C@@H](C(=O)N1CCCCC1)C1CC1)c1c[nH]c2ncc(C3CC3)nc12`, the Ki was found to be 4.4 µM.
For the compound `O=C(N[C@@H](C(=O)NCC(=O)N1CCCC1)C1CC1)c1c[nH]c2ncc(C3CC3)nc12`, the inhibitory constant (Ki) stood at 13.2 µM.
In the case of `O=C(N[C@@H](C(=O)NCc1ccc(Cl)cc1)C1CC1)c1c[nH]c2ncc(C3CC3)nc12`, the Ki was found to be 178 µM.
On to `O=C(N[C@@H](C(=O)N1CCC[C@@H](C(=O)N2CCOCC2)C1)C1CC1)c1c[nH]c2ncc(C3CC3)nc12`, for which the Ki stood at 6.4 µM.
To `O=C(N[C@@H](C(=O)NCC(=O)N1CCS(=O)(=O)CC1)C1CC1)c1c[nH]c2ncc(C3CC3)nc12` belongs 11.9 µM; to `CC(C)c1cnc2[nH]cc(C(=O)NC3CCOC3(C)C)c2n1` (centres unmarked), 241 µM; to `O=C(N[C@@H](C(=O)NCc1ccc(Cl)c(Cl)c1)C1CC1)c1c[nH]c2ncc(C3CC3)nc12`, more than 125 µM.
With `CC(C)c1cnc2[nH]cc(C(=O)N3CCC(F)(F)CC3)c2n1`, the Ki was more than 1000 µM.
Take `O=C(N[C@@H](C(=O)N1CCC[C@@H](C(=O)N2CCCC2)C1)C1CC1)c1c[nH]c2ncc(C3CC3)nc12`: the Ki was determined as 3.5 µM.
Take `O=C(N[C@@H](C(=O)NCc1ccccc1)C1CC1)c1c[nH]c2ncc(C3CC3)nc12`: the Ki turned out to be 37.3 µM.
To `CC1(CNC(=O)c2c[nH]c3ncc(-c4ccccc4Cl)nc23)CCC(=O)N1` (centres unmarked) belongs 907 µM.
Consider `O=C(N[C@H](C(=O)N1CCCC1)C1CC1)c1c[nH]c2ncc(C3CC3)nc12`, for which the Ki is 0.14 µM.
In the case of `CC(C)c1cnc2[nH]cc(C(=O)NCC(F)(F)F)c2n1`, the Ki worked out at 170 µM.
Regarding `CC(C)C[C@@H](NC(=O)c1c[nH]c2ncc(C3CC3)nc12)C(=O)NCC(=O)NCc1ccccc1`, the Ki stood at 6.82 µM.
For `O=C(N[C@@H](C(=O)NCc1cccnc1)C1CC1)c1c[nH]c2ncc(C3CC3)nc12`, the Ki is 18.7 µM.
Take `CC(C)C[C@@H](NC(=O)c1c[nH]c2ncc(C3CC3)nc12)C(=O)NCCC(=O)Nc1ccccc1`: the inhibition constant Ki worked out at 13.9 µM.
In the case of `O=C(N[C@@H](C(=O)NC1CCCc2ccccc21)C1CC1)c1c[nH]c2ncc(C3CC3)nc12` (some centres unmarked), the Ki stood at 53.3 µM.
For `O=C(N[C@@H](C(=O)N1CCOCC1)C1CC1)c1c[nH]c2ncc(C3CC3)nc12`, the Ki is 6.2 µM.
Consider `CC(C)C[C@@H](NC(=O)c1c[nH]c2ncc(C3CC3)nc12)C(=O)NCC(=O)NC1CCCC1`, for which the Ki is 2.53 µM.
Turning to `CC(C)C[C@@H](NC(=O)c1c[nH]c2ncc(C3CC3)nc12)C(=O)NCCC(=O)NC1CCCC1`, the Ki is 12.2 µM.
As for `O=C(N[C@@H](C(=O)NCc1cccc(Cl)c1)C1CC1)c1c[nH]c2ncc(C3CC3)nc12`, the Ki is more than 62.5 µM.
In the case of `COc1ccc(C(C#N)NC(=O)[C@H](NC(=O)c2c[nH]c3ncc(C4CC4)nc23)C2CC2)cc1` (some centres unmarked), the Ki was more than 125 µM.
`O=C(N[C@@H](C(=O)NCc1ccc(C(F)(F)F)cc1)C1CC1)c1c[nH]c2ncc(C3CC3)nc12`: the Ki was more than 125 µM.
Turning to `O=C(N[C@@H](C(=O)NCCC(=O)N1CCCCC1)C1CC1)c1c[nH]c2ncc(C3CC3)nc12`, the inhibition constant Ki stood at 63.5 µM.
Turning to `O=C(N[C@@H](C(=O)N1CC(F)(F)C1)C1CC1)c1c[nH]c2ncc(C3CC3)nc12`, the Ki worked out at 6 µM.
In the case of `O=C(N[C@@H](C(=O)N1CCC[C@H](C(=O)N2CCOCC2)C1)C1CC1)c1c[nH]c2ncc(C3CC3)nc12` it was 5.7 µM; in that of `CC(C)c1cnc2[nH]cc(C(=O)NC(C)C(C)(C)O)c2n1` (centres unmarked), more than 1000 µM.
Take `CC(C)(NC(=O)c1c[nH]c2ncc(C3CC3)nc12)C(=O)N1CCCC1`: the Ki turned out to be 265 µM.
